Assay results from patent US10253035B2 (priority 2016, dated 2019).

Test system: Mtb K204
Settings: compound in combination with KAN

Compound	effect on KAN resistance of Mtb K204 (in words)
CCCNC1=NS(=O)(=O)C(c2ccc(C)cc2)=C1C	did not overcome resistance to KAN
CCCNC1=NS(=O)(=O)C(c2ccc(C)c(C)c2)=C1C	did not overcome resistance to KAN
CC1=C(c2ccc(F)cc2)S(=O)(=O)N=C1NCc1ccco1	did not overcome resistance to KAN
C=CCNC(=O)CNC1=NS(=O)(=O)C(c2ccc(C)c(C)c2)=C1C	did not overcome resistance to KAN
CCCNC1=NS(=O)(=O)C(c2ccc(F)cc2)=C1C	did not overcome resistance to KAN
